Measured data: PubChem BioAssay AID504761 (Drosophila RNAi Screening Center, 2011)
Aim: 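Fly genes whose silencing reduces dengue virus type 2 infection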 (primary screen). Cells: D.Mel-2 cells from Drosophila. Reagents: long dsRNA against Drosophila genes. Conditions: infection with dengue virus type 2; dose and infection time not stated. Detection: 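Per well on two replicate plates, imaging gave the percent of cells positive for viral envelope protein, ranked by infection, and a nuclear count of cells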. Direction: infection score: higher = more virus-infected cells; cell count: higher = more cells in the well. Call rule: 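Very low infection ranking in both replicate wells (chance probability at most 0.065), then a retest showing infection dropped 1.5-fold or more at p below 0.05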. Calls: active = confirmed: knock-down lowers infection; inactive = not picked or not confirmed.
In all, the deposit lists about 22,000 reagents; this is a random part of those with a known target gene and a result. In the full data, 116 (0.52%) were called active. 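Calls depend on retest data that are not deposited; infection was ranked per plate without normalising between plates; the unit of the infection score is not given.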 The raw values are shown without normalisation. A plus sign joins genes that one reagent is predicted to hit. Not given: the amount of reagent, the time to read-out.

Target gene	dsRNA	infection score, replicate 1	infection score, replicate 2	cell count, replicate 1	cell count, replicate 2	Outcome
Mlc2	DRSC16741	9.19	4.63	6409	6455	inactive
Mlc2	DRSC28878	29	31	5337	4766	inactive
Rcd7	DRSC10100	2.75	7.69	6401	6644	inactive
Samuel	DRSC21731	36.2	6.85	4245	6174	inactive
Samuel	DRSC23114	1.22	0.27	6665	7095	inactive
Vha36-3	DRSC18615	2.65	14.2	6271	4877	inactive
Vha36-3	DRSC28636	20.5	25.7	5929	5879	inactive
Graf	DRSC20131	1.03	3.81	6533	6556	inactive
sle + CG12592	DRSC21387	2.23	5.63	5923	6589	inactive
sle + CG12592	DRSC27126	3.4	9.45	6260	6257	inactive
CG4768	DRSC19917	9.68	6.56	6093	6034	inactive
tws	DRSC12767	4.64	6.61	5533	5736	inactive
tws	DRSC17092	16.5	35.4	1929	2359	inactive
tws	DRSC27776	18.2	8.96	4824	6113	inactive
slo	DRSC17057	2.13	3.24	6622	6478	inactive
CG10428	DRSC02054	10	6.64	6632	6118	inactive
Mitofilin	DRSC16742	1.67	3.14	6514	6594	inactive
CG17375	DRSC02614	1.08	3.14	6466	5995	inactive
CG17375	DRSC29517	16.7	10.7	4550	4271	inactive
veg (retired record)	DRSC07714	15.7	6.05	5934	6892	inactive
CG31775 + CG42586	DRSC23266	11.9	4.28	5940	6289	inactive
CG18324	DRSC06721	2.91	17.6	6213	6238	inactive
CG18324	DRSC26600	0.93	7.86	6030	5458	inactive
CG8353	DRSC03084	8.34	20.2	4942	4713	inactive
CG8353	DRSC27248	9.17	4.28	6186	6302	inactive
NELF-B	DRSC17734	9.48	7.59	791	6074	inactive
NELF-B	DRSC26242	11.9	8.55	5607	5868	inactive
spz4	DRSC02410	15.1	9.12	5685	5864	inactive
spz4	DRSC27274	2.56	12.9	7177	5413	inactive

Reprinted from the listing (9 entries):
Target gene	dsRNA	infection score, replicate 1	infection score, replicate 2	cell count, replicate 1	cell count, replicate 2	Outcome
Mitofilin	DRSC16742	1.67	3.14	6514	6594	inactive
CG17375	DRSC02614	1.08	3.14	6466	5995	inactive
CG17375	DRSC29517	16.7	10.7	4550	4271	inactive
veg (retired record)	DRSC07714	15.7	6.05	5934	6892	inactive
CG31775 + CG42586	DRSC23266	11.9	4.28	5940	6289	inactive
CG18324	DRSC06721	2.91	17.6	6213	6238	inactive
CG18324	DRSC26600	0.93	7.86	6030	5458	inactive
CG8353	DRSC03084	8.34	20.2	4942	4713	inactive
CG8353	DRSC27248	9.17	4.28	6186	6302	inactive

Further records:
Target gene	dsRNA	infection score, replicate 1	infection score, replicate 2	cell count, replicate 1	cell count, replicate 2	Outcome
CG7692	DRSC10902	2.88	22.5	6490	6122	inactive
CG7692	DRSC24040	3.98	0.92	6557	6540	inactive
CG7322	DRSC20036	2.94	2.04	5955	6039	inactive
CG7322	DRSC26735	5.35	3.33	6411	6938	inactive
MAN1	DRSC04342	11.7	36	6520	4937	inactive
CG13594	DRSC23254	1.35	17.6	6864	6294	inactive
CG13594	DRSC27243	1.55	2.39	6845	6519	inactive
FER	DRSC12735	0.23	0.65	5964	5997	inactive
FER	DRSC16673	0.9	6.19	7254	6968	inactive
FER	DRSC29894	7.11	11.4	6149	6017	inactive
MED6	DRSC16500	26.7	26.9	5855	5971	inactive
CG14851	DRSC14975	2.68	1.75	6559	801	inactive
CG14851	DRSC21500	0.57	1.8	5923	6447	active
CG14851	DRSC27841	12.5	27.8	5974	4620	inactive
Sgs5bis	DRSC16263	2.23	8.55	6183	5110	inactive
Seipin	DRSC18654	5.66	6.83	6974	967	inactive
CG3651	DRSC03730	13.7	33.4	6130	5750	inactive
alpha4GT1	DRSC00488	4.2	1.81	6186	6124	inactive
AsnRS-m	DRSC07010	5.46	12.3	6504	4038	inactive
CG42323	DRSC19629	34	31.4	5300	3065	inactive
CG42323	DRSC21397	6.74	5.51	6109	6411	inactive
AnxB9	DRSC14111	3.49	4.03	6152	6178	inactive
AnxB9	DRSC25715	4.05	7.76	6093	6004	inactive
dtr	DRSC01847	0.39	0.28	6846	6856	inactive
CG7065	DRSC18420	1.17	4.94	5288	5262	inactive
CG7065	DRSC25280	3.35	5.24	5485	5079	inactive
CG32228	DRSC22296	1.19	10.8	5728	6053	inactive
Nepl15	DRSC15630	3.46	6.37	6627	6691	inactive
ash1	DRSC11325	1.84	9.02	7075	6884	inactive
